Human monoclonal antibodies against the spike receptor-binding domain (heavy:light variable regions). IC50 against pseudoviruses bearing the spike of naturally observed variants; lower = stronger; >10 µg/ml means not reached at the top dose. No active / inactive call. The stated detection limit is 0.0005 µg/ml; values near or below 0.001 µg/ml lie at the floor of the assay.
B1: BD56-1416 (protein)
chain 1: QVQLVQSGAEVKKPGASVKVSCKASGYSFTSYGISWVRQAPGQGLEWMGWISTYDVNTNYAQKFQGRVIMTTDTSTSTVYMELRSLRSDDTAVYFCARVFDFWSGYTQYYFDYWGQGTLVTVSS
chain 2: EIVMTQSPAILSVSSGERATLSCRASQSVNSNLAWYQQKPGQAPRLLIYGASTRATGIPVRFSGSGSGTDFTLTISSLQSEDFAVYYCQQYDNWPPTWTFGQGTKVEIK
B2: BD56-1404 (protein)
chain 1: QLPLQESGPGLVKPSETLSLTCTVSGGSIKRSSYYWGWIRQPPGKGLEWIGIIYYSGSTYYNPSLKSRVSISVDMSKNQFSLRLSSVTAADTALYYCARQLGYCSGGTCYSPYGMDVWGQGTTVTVSS
chain 2: DIQMTQSPSSLSASVGDRVTLTCRASQSITNYLNWYQQKPGEAPKLLIYAASSLQSGVPSRFSGSGSGTDFTLTISSLQPEDFATYYCQQSDTTPWTFGQGTKVDIK
B3: BD56-1417 (protein)
chain 1: EVQLVESGGGLIKPGGSLRLSCVASGFSFSDAWMSWVRQAPGKGLEWVGHIKSYTDGGTTDYAAPVKGRFTISRDDSKNTVYLQMNSLKTEDTAVYYCTEDWYNWNAPDLNGMDVWGQGTTVTVSS
chain 2: DIQMTQSPSSLSASVGDRVTITCRASQSISRYLNWYQKKPGKAPKLLIYAASNLQSGVPSRFSGSGSGTDFTLTISSLQPEDFATYYCQQSYSTPWTFGQGTKVEIK
B4: COV2-2389 (protein)
chain 1: EVQLVESGGGLVQPGRSLRLSCAASGFTFDDYAMHWVRQAPGKGLEWVSGISWNSGTIGYADSVKGRFIISRDNAKNSLYLQMNSLRPEDTALYYCAKDIIRQGEDGMDVWGQGTTVTVSS
chain 2: DIQMTQSPSSLSASVGDRVTITCRASQNIASYLNWYQQKPGKAPKLLIYAASSLQSGVPSRFSGSGSGTDFTLTISSLQPEEFATYYCQQSYSTPWTFGQGTKVEIK
B5: BD56-1438 (protein)
chain 1: EVQLVESGGGLVQPGGSLRLSCAASGFTFSRYDMHWVRQAAGKGLEWVSLIGTAGDTYYPGSVKGRFTISRENAKNSLYLQMNSLTVGDTAVYYCARSAEIFGVEDLGVYGMDVWGQGTTVTVSS
chain 2: DIQMTQSPSSLSASVGDTVTITCRASQSVTRFLNWYQQRPGKAPKLLISAASILQSGVPSRFSGSGSGTDFTLTISSLQPEDFATYYCQQSYSTPSWTFGQGTELEIK
B6: BD56-1409 (protein)
chain 1: QVHLVQSGAEVKKPGASVKVSCKASGYTLTNHYIHWVRQAPGQGLEWMGIINPSGGSTSYAQKFQGRVTMTTDTSTSTVYMELSSLRSEDTAVYYCARDSSYIPQKYYYGLDVWGQGTAVTVSS
chain 2: DIQMTQSPSSLSASVGDRVTITCRASQSISSYLNWYQQKPGKAPKLLIYAASSLQSGVPSRFSGGGSGTDFALTISTLQPEDFATYYCQQSYITPPTFGQGTKVEIK

target: SARS-CoV-2 Omicron BA.1 spike pseudovirus; experiment: pseudovirus neutralization IC50; higher = weaker neutralization
Description: (§1)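 Single-round VSV luciferase pseudovirus mixed with antibody dilutions for 1 h and put on Huh-7 cells for about a day; IC50 from the dose curve.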

Point of comparison: B1, “pseudovirus neutralization IC50” value 0.617 mg/L. Against it:
- B2 — higher, > 10 mg/L
- B3 — 2.6-fold higher, 1.61 mg/L
- B4 — higher, > 10 mg/L
- B5 — higher, > 10 mg/L
- B6 — higher, > 10 mg/L

target: SARS-CoV-2 Omicron BA.2 spike pseudovirus; experiment: as above
Description: as §1

Point of comparison: B3, “pseudovirus neutralization IC50” value 1.32 mg/L. Against it:
- B1 — within 1.5-fold, 1.4 mg/L
- B2 — higher, > 10 mg/L
- B4 — higher, > 10 mg/L
- B5 — higher, > 10 mg/L
- B6 — higher, > 10 mg/L

target: SARS-CoV-2 Omicron BA.2.75 spike pseudovirus; experiment: as above
Description: as §1

Point of comparison: B1, “pseudovirus neutralization IC50” value 0.569 mg/L. Against it:
- B2 — higher, > 10 mg/L
- B3 — within 1.5-fold, 0.514 mg/L
- B4 — higher, > 10 mg/L
- B5 — higher, > 10 mg/L
- B6 — higher, > 10 mg/L

target: SARS-CoV-2 Omicron BA.5 spike pseudovirus; experiment: as above
Description: as §1

Point of comparison: B3, “pseudovirus neutralization IC50” value 1.79 mg/L. Against it:
- B1 — 2.6-fold higher, 4.63 mg/L
- B2 — higher, > 10 mg/L
- B4 — higher, > 10 mg/L
- B5 — higher, > 10 mg/L
- B6 — higher, > 10 mg/L

target: SARS-CoV-2 Omicron BQ.1.1 spike pseudovirus; experiment: as above
Description: as §1

Point of comparison: B1, “pseudovirus neutralization IC50” value 2.35 mg/L. Against it:
- B2 — higher, > 10 mg/L
- B3 — within 1.5-fold, 2.29 mg/L
- B4 — higher, > 10 mg/L
- B5 — higher, > 10 mg/L
- B6 — higher, > 10 mg/L

target: SARS-CoV-2 Omicron XBB spike pseudovirus; experiment: as above
Description: as §1

Point of comparison: B1, “pseudovirus neutralization IC50” value 3.04 mg/L. Against it:
- B2 — higher, > 10 mg/L
- B3 — within 1.5-fold, 2.93 mg/L
- B4 — higher, > 10 mg/L
- B5 — higher, > 10 mg/L
- B6 — higher, > 10 mg/L

target: SARS-CoV-2 early D614G spike pseudovirus; experiment: as above
Description: as §1

Point of comparison: B4, “pseudovirus neutralization IC50” value 0.613 mg/L. Against it:
- B1 — 4.5-fold higher, 2.78 mg/L
- B2 — higher, > 10 mg/L
- B3 — 4.4-fold higher, 2.71 mg/L
- B5 — higher, > 10 mg/L
- B6 — higher, > 10 mg/L
